From patent US20050113292A1 (priority 2003, published 2005)

Test: CD measurement of α-helicity
Format: physicochemical
Conditions: aqueous solution

Structure (SMILES)	α-helicity (%)
CC[C@H](C)[C@H](NC(=O)[C@H](CC(C)C)NC(=O)[C@H](CO)NC(=O)[C@H](Cc1c[nH]cn1)NC(=O)[C@@H](NC(=O)[C@H](CC(C)C)NC(=O)[C@H](CO)NC(=O)[C@@H](NC(=O)[C@H](Cc1ccc(O)cc1)NC(=O)[C@H](CC(N)=O)NC(=O)[C@H](CC(N)=O)NC(=O)[C@@H](NC(=O)[C@H](CCC(=O)O)NC(=O)[C@H](CCCNC(=N)N)NC(=O)[C@H](CC(=O)O)NC(=O)[C@H](Cc1c[nH]c2ccccc12)NC(=O)[C@H](CCC(=O)O)NC(=O)[C@H](CCSC)NC(=O)[C@@H]1Cc2c([nH]c3ccccc23)C(C(=O)NCCCC[C@H](NC(=O)CCNC(=O)C2N[C@H](C(=O)N[C@@H](CCSC)C(=O)N[C@@H](CCC(=O)O)C(=O)N[C@@H](Cc3c[nH]c4ccccc34)C(=O)N[C@@H](CC(=O)O)C(=O)N[C@@H](CCCNC(=N)N)C(=O)N[C@@H](CCC(=O)O)C(=O)N[C@H](C(=O)N[C@@H](CC(N)=O)C(=O)N[C@@H](CC(N)=O)C(=O)N[C@@H](Cc3ccc(O)cc3)C(=O)N[C@H](C(=O)N[C@@H](CO)C(=O)N[C@@H](CC(C)C)C(=O)N[C@H](C(=O)N[C@@H](Cc3c[nH]cn3)C(=O)N[C@@H](CO)C(=O)N[C@@H](CC(C)C)C(=O)N[C@H](C(=O)N[C@@H](CCC(=O)O)C(=O)N[C@@H](CCC(=O)O)C(=O)N[C@@H](CO)C(=O)N[C@@H](CCC(N)=O)C(=O)N[C@@H](CC(N)=O)C(=O)N[C@@H](CCC(N)=O)C(=O)N[C@@H](CCC(N)=O)C(=O)N[C@@H](CCC(=O)O)C(=O)N[C@@H](CCCCN)C(=O)N[C@@H](CC(N)=O)C(=O)N[C@@H](CCC(=O)O)C(=O)N[C@@H](CCC(N)=O)C(=O)N[C@@H](CCC(=O)O)C(=O)N[C@@H](CC(C)C)C(=O)N[C@@H](CC(C)C)C(=O)O)[C@@H](C)CC)[C@@H](C)CC)[C@@H](C)O)[C@@H](C)CC)Cc3c2[nH]c2ccccc32)C(=O)N[C@@H](CO)C(=O)N[C@@H](CO)C(=O)N[C@@H](C)C(N)=O)N1)[C@@H](C)CC)[C@@H](C)O)[C@@H](C)CC)C(=O)N[C@@H](CCC(=O)O)C(=O)N[C@@H](CCC(=O)O)C(=O)N[C@@H](CO)C(=O)N[C@@H](CCC(N)=O)C(=O)N[C@@H](CC(N)=O)C(=O)N[C@@H](CCC(N)=O)C(=O)N[C@@H](CCC(N)=O)C(=O)N[C@@H](CCC(=O)O)C(=O)N[C@@H](CCCCN)C(=O)N[C@@H](CC(N)=O)C(=O)N[C@@H](CCC(=O)O)C(=O)N[C@@H](CCC(N)=O)C(=O)N[C@@H](CCC(=O)O)C(=O)N[C@@H](CC(C)C)C(=O)N[C@@H](CC(C)C)C(=O)O (stereo partly drawn) [Compound 2α-C34]	52
CC[C@H](C)[C@H](NC(=O)[C@H](CC(C)C)NC(=O)[C@H](CO)NC(=O)[C@H](Cc1c[nH]cn1)NC(=O)[C@@H](NC(=O)[C@H](CC(C)C)NC(=O)[C@H](CO)NC(=O)[C@@H](NC(=O)[C@H](Cc1ccc(O)cc1)NC(=O)[C@@H]1CSC(C(=O)NCCCC[C@H](NC(=O)CCNC(=O)C2N[C@H](C(=O)N[C@@H](Cc3ccc(O)cc3)C(=O)N[C@H](C(=O)N[C@@H](CO)C(=O)N[C@@H](CC(C)C)C(=O)N[C@H](C(=O)N[C@@H](Cc3c[nH]cn3)C(=O)N[C@@H](CO)C(=O)N[C@@H](CC(C)C)C(=O)N[C@H](C(=O)N[C@@H](CCC(=O)O)C(=O)N[C@@H](CCC(=O)O)C(=O)N[C@@H](CO)C(=O)N[C@@H](CCC(N)=O)C(=O)N[C@@H](CC(N)=O)C(=O)N[C@@H](CCC(N)=O)C(=O)N[C@@H](CCC(N)=O)C(=O)N[C@@H](CCC(=O)O)C(=O)N[C@@H](CCCCN)C(=O)N[C@@H](CC(N)=O)C(=O)N[C@@H](CCC(=O)O)C(=O)N[C@@H](CCC(N)=O)C(=O)N[C@@H](CCC(=O)O)C(=O)N[C@@H](CC(C)C)C(=O)N[C@@H](CC(C)C)C(=O)N[C@@H](CCC(=O)O)C(=O)N[C@@H](CC(C)C)C(=O)N[C@@H](CC(=O)O)C(=O)N[C@@H](CCCCN)C(=O)N[C@@H](Cc3c[nH]c4ccccc34)C(=O)N[C@@H](C)C(=O)N[C@@H](CO)C(=O)N[C@@H](CC(C)C)C(=O)N[C@@H](Cc3c[nH]c4ccccc34)C(=O)N[C@@H](CC(N)=O)C(=O)N[C@@H](Cc3c[nH]c4ccccc34)C(=O)N[C@@H](Cc3ccccc3)C(=O)O)[C@@H](C)CC)[C@@H](C)CC)[C@@H](C)O)CS2)C(=O)N[C@@H](CO)C(=O)N[C@@H](CO)C(=O)N[C@@H](C)C(N)=O)N1)[C@@H](C)O)[C@@H](C)CC)C(=O)N[C@@H](CCC(=O)O)C(=O)N[C@@H](CCC(=O)O)C(=O)N[C@@H](CO)C(=O)N[C@@H](CCC(N)=O)C(=O)N[C@@H](CC(N)=O)C(=O)N[C@@H](CCC(N)=O)C(=O)N[C@@H](CCC(N)=O)C(=O)N[C@@H](CCC(=O)O)C(=O)N[C@@H](CCCCN)C(=O)N[C@@H](CC(N)=O)C(=O)N[C@@H](CCC(=O)O)C(=O)N[C@@H](CCC(N)=O)C(=O)N[C@@H](CCC(=O)O)C(=O)N[C@@H](CC(C)C)C(=O)N[C@@H](CC(C)C)C(=O)N[C@@H](CCC(=O)O)C(=O)N[C@@H](CC(C)C)C(=O)N[C@@H](CC(=O)O)C(=O)N[C@@H](CCCCN)C(=O)N[C@@H](Cc1c[nH]c2ccccc12)C(=O)N[C@@H](C)C(=O)N[C@@H](CO)C(=O)N[C@@H](CC(C)C)C(=O)N[C@@H](Cc1c[nH]c2ccccc12)C(=O)N[C@@H](CC(N)=O)C(=O)N[C@@H](Cc1c[nH]c2ccccc12)C(=O)N[C@@H](Cc1ccccc1)C(=O)O (stereo partly drawn) [Compound 2α-DP178]	66
